# Publication PMC9728131, “Host acid signal controls Salmonella flagella biogenesis through CadC-YdiV axis”
# For some assays here: The exact form of at least one protein or probe is not confirmed. For some assays here: Where a protein sequence is shown, tags need not be part of it.
# Legend:
# CadCc [1] = assay: competition EMSA; details: displaces 30 uM H-NS, starts at 18.75 uM CadCc, complete at about 150 uM; EMSA: 20 mM Tris-HCl pH 8.0, 100 mM NaCl, 1 mM MgCl2, 1 mM ZnCl2, 4% glycerol, RT 10 min (competition 4 C, 30 min + 30 min); recombinant protein; protein details: N-terminal 6xHis (pGL01); probe letters rebuilt from the primers and the genome
# CadCc [2] = assay: EMSA; details: shift at protein:DNA ratio above 2, 5 uM DNA; EMSA: 20 mM Tris-HCl pH 8.0, 100 mM NaCl, 1 mM MgCl2, 1 mM ZnCl2, 4% glycerol, RT 10 min (competition 4 C, 30 min + 30 min); recombinant protein; protein details: N-terminal 6xHis (pGL01); probe letters rebuilt from the primers and the genome
# H-NS [3] = biological target: T1, H-NS (UniProt P0ACF8); assay: EMSA; details: shift at protein:DNA ratio above 4, 5 uM DNA; EMSA: 20 mM Tris-HCl pH 8.0, 100 mM NaCl, 1 mM MgCl2, 1 mM ZnCl2, 4% glycerol, RT 10 min (competition 4 C, 30 min + 30 min); recombinant protein; protein details: N-terminal 6xHis (pGL01); probe letters rebuilt from the primers and the genome
# T1 sequence (looked up, limits assumed): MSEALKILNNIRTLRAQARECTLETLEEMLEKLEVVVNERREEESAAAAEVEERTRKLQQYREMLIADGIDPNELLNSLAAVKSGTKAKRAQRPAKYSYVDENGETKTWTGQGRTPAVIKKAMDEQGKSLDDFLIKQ
# CadCc [4] = assay: DNase I footprinting; details: 33 nt protected; footprinting: 30 C, 30 min; recombinant protein; protein details: N-terminal 6xHis (pGL01); label: 5' FAM on S32; probe letters rebuilt from the primers and the genome
# H-NS [5] = biological target: T1, H-NS; assay: DNase I footprinting; details: 51 nt and 34 nt regions protected; footprinting: 30 C, 30 min; recombinant protein; protein details: N-terminal 6xHis (pGL01); label: 5' FAM on S32; probe letters rebuilt from the primers and the genome
Sequence,binding result (CadCc [1]),binding result (CadCc [2]),binding result (H-NS [3]),binding result (CadCc [4]),binding result (H-NS [5])
CCTCGCAGACGATATAAATTTTATAGTCTATTTTTAACATATCGCCGGTTGAACTTATGACATCTGTTGTCATCATATATAATGATATAACCGTAGCATTTACAAACGTACTTTTATTAAAAACGGGCGTGTTCACGCCCTGTGAAAAGTACAAGATTGAATATTGGTTTATAATCAGAGTAAGTTAAAAAAAGGAACCGGTTCACCGGTAAACAAGAAAAATGATGACGCTTCAATTAGTATCTGAAGTTACGTCTGTTTCCGTCCGTAGTGACTGGATGGCGAATAGCGCCCTAACCATGGGACTGGCGTA (double strand) [ydiV promoter 313 bp],binds,binds,binds,,
CCTCGCAGACGATATAAATTTTATAGTCTATTTTTAACATATCGCCGGTTGAACTTATGACATCTGTTGTCATCATATATAATGATATAACCGTAGCATTTACAAACGTACTTTTATTAAAAACGGGCGTGTTCACGCCCTGTGAAAAGTACAAGATTGAATATTGGTTTATAATCAGAGTAAGTTAAAAAAAGGAACCGGTTCACCGGTAAACAAGAAAAATGATGACGCTTCAATTAGTATCTGAAGTTACGTCTGTTTCCGTCCGTAGTGACTGGATGGCGAATAGCGCCCTAACCATGGGACTGGCGTA (double strand) [ydiV promoter footprinting probe],,,,binds,binds
